{
  "sequences": {"note": "Amino acid sequences for entries named in this document (tags omitted). Residues count along the entry.", "UniProt P27958, 1027-1657 limits assumed": "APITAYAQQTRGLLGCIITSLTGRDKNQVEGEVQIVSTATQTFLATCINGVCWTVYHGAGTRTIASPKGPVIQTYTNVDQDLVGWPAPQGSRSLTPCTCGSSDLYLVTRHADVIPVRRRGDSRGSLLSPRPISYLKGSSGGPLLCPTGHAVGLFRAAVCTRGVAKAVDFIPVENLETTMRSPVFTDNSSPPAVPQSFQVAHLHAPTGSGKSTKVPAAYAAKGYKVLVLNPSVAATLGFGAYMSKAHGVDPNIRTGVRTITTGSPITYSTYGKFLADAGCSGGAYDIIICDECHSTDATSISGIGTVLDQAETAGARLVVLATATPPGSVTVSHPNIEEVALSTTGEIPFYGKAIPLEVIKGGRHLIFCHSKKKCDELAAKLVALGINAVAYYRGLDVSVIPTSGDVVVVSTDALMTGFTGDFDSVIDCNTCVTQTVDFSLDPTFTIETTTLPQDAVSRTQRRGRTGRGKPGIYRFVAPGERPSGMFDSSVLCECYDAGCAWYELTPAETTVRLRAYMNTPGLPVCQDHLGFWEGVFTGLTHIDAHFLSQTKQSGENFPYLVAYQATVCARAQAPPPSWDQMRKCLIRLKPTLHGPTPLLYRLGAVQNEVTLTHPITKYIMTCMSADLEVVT"},
  "source": "patent US8299021B2",
  "about": "“Macrocyclic inhibitors of hepatitis C virus replication” (InterMune, Inc., priority 2005, dated 2012)",
  "target": "NS3-NS4 protease (full-length NS3/NS4A-2) (Hepatitis C virus genotype 1a, UniProt P27958)",
  "assay": "NS3-NS4 protease assay / NS3 inhibition assay (RETS1 substrate, fluorescence kinetic read)",
  "format": "biochemical",
  "conditions": "read-out: NS3-NS4 IC50; Table 22",
  "data": [
    {"smiles": "CC(C)(C)OC(=O)N[C@H]1CCCCC/C=C\\[C@@H]2C[C@@]2(C(=O)NCc2cccs2)NC(=O)[C@@H]2CCCN2C1=O", "values": [
      {"measurement": "IC50", "result": "< 1000", "unit": "nM"}
    ]}
  ]
}
